Results of unrelated studies side by side (data: NIAID ChemDB).

All rows: tests in culture; agent: Candida albicans; measure: MIC

Conditions beyond the fields shown may differ between rows.

COc1ccc(C(=O)CC(c2cc3ccccc3nc2Cl)C(C#N)C#N)cc1OC ; strain: ATCC 10231 ; value: >50 µg/mL
Cc1c(SCCN)c(F)cn2c(=O)c(C(=O)O)cc(C3CC3)c12.O=C(O)C(F)(F)F ; strain: CCH442 ; value: >100 µg/mL
CC1(C)C=Cc2cc3ccc(=O)oc3cc2O1 ; strain: ATCC 14053 ; value: 500 µg/mL
COc1cc2cc(/C=C/C(=O)c3ccc(Br)cc3)c(Cl)nc2cc1OC ; strain: ATCC 10231 ; value: >50 µg/mL
Cc1cnccc1CCCc1ccc(Br)cc1 ; strain: C316 ; value: 31 µg/mL
O=C(/C=C/c1ccccc1)c1ccccc1 ; strain: ATCC 10231 ; value: >50 µg/mL
CC1(C)C=Cc2c(c3c(c4ccc(=O)oc24)OC(C)(C)C=C3)O1 ; strain: ATCC 14053 ; value: 500 µg/mL
Cc1c(N2CCC(C(C)(C)N)C2)c(F)cn2c(=O)c(C(=O)O)cc(C3CC3)c12 ; strain: CCH442 ; value: >100 µg/mL
CC[C@H]1OC(=O)C=C2[C@@]13O[C@@H]3C1OC(=O)[C@@]3(C)CCC[C@@]2(C)[C@@H]13 ; strain: ATCC 90028 ; value: 16 µg/mL
CN1CCC2=C(CCCC2CCc2ccc(Cl)c(Cl)c2)C1 ; strain: 2381E ; value: 31 µg/mL
CCCCNC(=O)c1ccc(F)cc1SSc1cc(F)ccc1C(=O)NCCCC ; strain: ATCC 2091 ; value: 7.5 µg/mL
Cc1c(N2CC[C@@H]([C@H](N)CO)C2)c(F)cn2c(=O)c(C(=O)O)cc(C3CC3)c12 ; strain: CCH442 ; value: >100 µg/mL
CN1CCC2=C(CCCC2CCc2ccccc2)C1 ; strain: C316 ; value: 31 µg/mL
O=c1[nH]sc2c(C(F)(F)F)cccc12 ; strain: ATCC 2091 ; value: 20 µg/mL
C[C@H]1[C@H](O)[C@@H](C)/C=C/C=C/C=C/C=C/C=C/C=C/C=C/[C@H](O[C@@H]2O[C@H](C)[C@@H](O)[C@H](N)[C@@H]2O)C[C@@H]2O[C@](O)(C[C@@H](O)C[C@@H](O)CC[C@H](O)[C@@H](O)C[C@@H](O)CC(=O)O[C@H]1C)C[C@H](O)[C@H]2C(=O)O ; strain: SKF ; value: 0.0125 µg/mL
Cc1c(N2CCC3CCCC3C2)c(F)cn2c(=O)c(C(=O)O)cc(C3CC3)c12 ; strain: CCH442 ; value: 50 µg/mL
O=c1ccc2ccc(Cl)cc2o1 ; strain: ATCC 14053 ; value: 500 µg/mL
CC(Cc1ccc(C(C)(C)C)cc1)CN1CC(C)OC(C)C1 ; strain: SC5314 ; value: >3.12 µg/mL
CN1CCC2=C(CCCC2CCc2ccc(Br)cc2)C1 ; strain: C316 ; value: 8 µg/mL
Cc1c(N2CCOCC2CN)c(F)cn2c(=O)c(C(=O)O)cc(C3CC3)c12.Cl ; strain: CCH442 ; value: >100 µg/mL
CN1CCC2=C(CCCC2CCc2c(Cl)cccc2Cl)C1 ; strain: 2402E ; value: 16 µg/mL
CO[C@@H]1CN(c2c(F)cn3c(=O)c(C(=O)O)cc(C4CC4)c3c2C)C[C@H]1N ; strain: CCH442 ; value: >100 µg/mL
Cc1c(N2CC[C@@H](N(C)C)C2)c(F)cn2c(=O)c(C(=O)O)cc(C3CC3)c12 ; strain: CCH442 ; value: >100 µg/mL
NC(=O)c1ccc(C(F)(F)F)cc1SSc1cc(C(F)(F)F)ccc1C(N)=O ; strain: ATCC 2091 ; value: 7.5 µg/mL
C[C@@H](c1nc(-c2ccc(C#N)cc2)cs1)[C@](O)(Cn1cnnc1)c1ccc(F)cc1F ; strain: Isogenic isolate 14 Erg11 (4-5X) R467K ; value: 0.03 µg/mL
Cc1c(N2CCC(n3cccc3)CC2)c(F)cn2c(=O)c(C(=O)O)cc(C3CC3)c12 ; strain: CCH442 ; value: >100 µg/mL
C[C@@H]1C[C@@H]([C@H](O)CC2CC(=O)NC(=O)C2)C(=O)[C@@H](C)C1 ; strain: Isolate 4 ; value: 0.53 µM
NC(=O)c1ccc(F)cc1SSc1cc(F)ccc1C(N)=O ; strain: ATCC 2091 ; value: 7.5 µg/mL
CC[C@H](N)[C@@H]1CCN(c2c(F)cn3c(=O)c(C(=O)O)cc(C4CC4)c3c2C)C1.Cl ; strain: CCH442 ; value: 12.5 µg/mL
Cc1cnccc1CCCc1ccccc1 ; strain: C316 ; value: 16 µg/mL
CC1=C(N2CC3CCCCN3C2)C(F)=CN2C(=O)C(C(=O)O)=CC(C3CC3)C12 ; strain: CCH442 ; value: >100 µg/mL
C[C@@]12CCC[C@]3(C)C4=CC(=O)OC(O)[C@]45O[C@@H]5C(OC1=O)[C@@H]23 ; strain: ATCC 90028 ; value: >64 µg/mL
N#CC(C#N)C(CC(=O)c1ccccc1)c1ccc(Cl)cc1Cl ; strain: ATCC 10231 ; value: >50 µg/mL
C[C@@H]1[C@H](O)[C@@H](C)/C=C/C=C/C=C/C=C/C=C/C=C/C=C/[C@H](OC2O[C@@H](C)[C@H](O)[C@@H](N)[C@H]2O)C[C@@H]2OC(O)(C[C@@H](O)C[C@@H](O)[C@H](O)CC[C@@H](O)C[C@@H](O)CC(=O)C[C@H]1C)C[C@H](O)[C@H]2C(=O)O ; strain: MTCC 7315 ; value: 300 µg/mL
Cc1c(N2CC[C@H](NC(=O)[C@H](C)NC(=O)[C@H](C)N)C2)c(F)cn2c(=O)c(C(=O)O)cc(C3CC3)c12 ; strain: CCH442 ; value: >100 µg/mL
CN1CCC2=C(CCCC2CCc2ccc(F)cc2)C1 ; strain: 2381E ; value: 16 µg/mL
Cc1c(N2CCC(CN)(C(F)(F)F)C2)c(F)cn2c(=O)c(C(=O)O)cc(C3CC3)c12 ; strain: CCH442 ; value: >100 µg/mL
CN1CCC2=C(CCCC2CCc2ccc(Cl)cc2Cl)C1 ; strain: 2381E ; value: 31 µg/mL
CC(C)=CCC/C(C)=C/CC/C(C)=C/CC[C@@]1(C)[C@H](CCCO)/C(=C(/C)C=O)CC[C@]1(C)O ; strain: SR76 ; value: >50 µg/mL
CNCC1COC2(CCN(c3c(F)cn4c(=O)c(C(=O)O)cc(C5CC5)c4c3C)CC2)O1.Cl ; strain: CCH442 ; value: >100 µg/mL
O=C(/C=C/c1ccc(Cl)cc1)c1ccc(Cl)cc1 ; strain: ATCC 10231 ; value: >50 µg/mL
CC1=C(N2CC3CC3(N)C2)C(F)=CN2C(=O)C(C(=O)O)=CC(C3CC3)C12 ; strain: CCH442 ; value: >100 µg/mL
COc1cc(O)c2c(c1)C(=O)c1c(cc3c(c1O)-c1c(cc(C)c(C(=O)NC(CO)C(=O)O)c1O)[C@H](OC1OC(C)C(O)C(OC4OCC(O)C(O)C4O)C1O)C3O)C2=O ; strain: ATCC 38247 ; value: 3.1 µg/mL
COc1ccc2oc(=O)ccc2c1 ; strain: ATCC 14053 ; value: 500 µg/mL